What was measured:
Type in all cases: biochemical
A/Fukui H3N2 wt NA = A/Fukui H3N2 wt NA (Influenza A virus, UniProt A0A0F6NYK2); conditions: read-out: IC50 in the enzyme inhibition assay, A/Fukui H3N2
[1] = target: B/Florida wt (B/Florida/4/2006) NA (Influenza B virus, UniProt J7JZT1)
[2] = target: Auckland pH1N1 wt (A/Auckland/3/2009) NA (Influenza A virus, UniProt C3W5S3)

In the case of Zanamivir, the IC50 (A/Fukui H3N2 wt NA) is reported as 3.8 nM, the IC50 [1] is reported as 3.9 nM and the IC50 [2] is reported as 0.6 nM.
